Laboratory results: PubChem BioAssay AID602233 (National Center for Advancing Translational Sciences (NCATS), 2012)
This is a selection; strong and weak results do not stand in their true shares. The source made the active and inactive calls. Calls come from the whole dose curve; as a rule, active = well fitted inhibition curve with a large enough effect; inconclusive = small, poorly fitted or top-dose-only effect; inactive = no such curve, though single readings can be large or run the other way.

The molecules below were run against Phosphoglycerate kinase, glycosomal (Trypanosoma brucei brucei) (UniProt P07378) (assay: qHTS Assay to Find Inhibitors of Phosphoglycerate Kinase). Conditions: PGK/GAPDH coupled, Kinase-Glo luminescence, 60 min; at 57.5 µM (top of the series).
Text: Several species of the Trypanosomatidae family of parasitic protozoans cause a spectrum of diseases throughout the tropical and subtropical world. Sleeping sickness, caused by two subspecies of Trypanosoma brucei, is endemic to areas of sub-Saharan Africa, while Chagas disease, a manifestation of Trypanosoma cruzi infection, is prevalent throughout Central and South America. In addition, many species of Leishmania are responsible for a range of cutaneous and visceral diseases, causing ulcers, destructive lesions and kalaazar, a lethal infection of the viscera. Collectively, these organisms infect 30 million people worldwide (~500 million live in endemic areas), and account for ~130,000 deaths annually. Given their debilitating and prevalent nature, trypanosomatid parasites impose a heavy medical, economic and social burden on entire populations, primarily in the developing world. […]
3ul of substrate/PGK buffer (columns 1,2,5-48) are dispensed into Greiner white solid bottom 1536-well assay plates; columns 3-4 receive only TEA buffer as 0x PGK controls. […] Kinase-Glo Plus reagent is added (2ul) and plates incubated for 10 minutes, before being transferred to a ViewLux high-throughput CCD imager (PerkinElmer) wherein single end-point measurements of luminescence are acquired using a clear filter. […]
% is set by controls: 0 for no effect and ±100 for the full control effect.
Note: nearly all actives have a fitted effect of over 60% in size.

| SMILES | activity change, negative = inhibition |
| --- | --- |
| O=C(O)c1ccccc1[As](=O)(O)O | inactive: 5.03% |
